How the values were obtained:
[1] = test system: Rhodanobacter sp. FW104-10B01
Outline: (§1)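 Washed cells (80 µL, final OD600 0.02) were dispensed onto 384-well dilution series of inorganic ion salts or equimolar nitrilotriacetic acid complexes. Plates kept aerobically were shaken at 700 rpm at 30 °C, anaerobic ones stayed still, and OD600 readings at 24 h (48 h for R2A strain comparisons) were scaled between water and growth-blocking antibiotic controls, ignoring wells with precipitate. IC50 values are drc R package fits of at least two biological replicate curves.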

[2] = test system: Pseudomonas fluorescens FW300-N2E2
Outline: as §1

O=P([O-])([O-])F.[Na+].[Na+] [Sodium Fluorophosphate]
Conditions	IC50 growth inhibition [mM]
[1], medium / electron acceptor: 10B01 R2A/aerobic	354
[1], medium / electron acceptor: 10B01 R2A/nitrate	85.2
[2], medium / electron acceptor: N2E2 Glucose/aerobic	< 0.244
[2], medium / electron acceptor: N2E2 Glucose/aerobic 0.25xMinerals	< 0.244
[2], medium / electron acceptor: N2E2 Glucose/aerobic (2)	< 0.244
[2], medium / electron acceptor: N2E2 KB/aerobic	30.1
[2], medium / electron acceptor: N2E2 LB/aerobic	353
[2], medium / electron acceptor: N2E2 LB/aerobic (2)	354
[2], medium / electron acceptor: N2E2 LB/nitrate	81.5
[2], medium / electron acceptor: N2E2 Lactate/aerobic	1.58
[2], medium / electron acceptor: N2E2 R2A/aerobic	32.2
